The values below come from patent US7846971B2, “N-halogenated amino acids, N,N-dihalogenated amino acids and derivatives; compositions and methods of using them” (Novabay Pharmaceuticals, Inc., priority 2005, dated 2010).

Each structure is given as a SMILES string.

The subject of this series is Primary Human Skin Fibroblasts. The experiment in a line: XTT cytotoxicity assay on primary human skin fibroblasts. The format is cell-based. How it is done: Cytotoxicity was assessed by a colorimetric assay system, initially described by Scudiero et al., using 3′-(phenylamino-carbonyl)-3,4-tetrazolium-bis (4-methoxy-6-nitro) benzene sulfonic acid hydrate (XTT), ProCheck™ cell viability assay (Evaluation of a soluble tetrazolium/formazan assay for cell growth and drug sensitivity in culture using human and other tumor cell lines described by Scudiero D A, Shoemaker R A H, Paul K D, Monks A, Tierney S, Nofziger T H, Currens M J, Seniff D, Boyd M R. Cancer Res. 1988 Septmeber 1;48(17):4827-33). Similar approaches for determining the cell viability are used by other investigators. Three cell types were used: mouse lung epithelial cells (L929), primary human skin fibroblast and primary human keratinocyte cells cultured in Dulbecco Modified Eagle's Medium and Keratinocyte defined medium with corresponding growth factors plus antibiotics. Cells were trypsinized and counted under the microscope and seeded at 1000-to-2000 cells per well of a flat-bottom 96-well plate. Cells were allowed to grow over-night at 37° C. Next day, tissue culture media was removed and cells were rinsed with fresh media 1× and then left in 50 μL of tissue culture media. […] Absorbance was read at 450 nm with reference wavelength at 750 nm using Molecular Device ThermoMax Plate reader, blanking the plate on the medium-only assay blank wells. […]
A general note: Tetrazolium assays rely on reduction of a dye to a coloured formazan, in cell work by metabolically active cells.

For `OCl` [HOCl, hypochlorous acid, reference compound], the “therapeutic index (TI), IC50 over MBC” value (Table 2) is listed as “about 300”. For the same compound, the “T.I. on HF (Therapeutic Index, primary human skin fibroblast cells)” value (pH 3.5, IC50/MBC E. coli) is 297.
